For the first assay, the target named is human voltage-gated sodium channel Nav1.3 (human), Q9NY46. The experiment in a line: cell-based or functional assay.
The molecule DCLGFMRKCIPDNDKCCRPNLVCSRTHKWCKKVFW (modifications not checked) [[Lys32]GpTx-1(1-34)-Trp] returned an IWQ Use Nav1.3 (µM); IC50 of peak inward current, IonWorks Quattro of 0.7 µM.
For TCLGFMRKCIPDNDKCCRPNLVCSRTHKWCKYVF (modifications not checked) [[Thr1]GpTx-1(1-34)], the IWQ Use Nav1.3 was 0.07 µM.
DCLGAFRKCEPDNDKCCRPNLVCSRTHKWCKYVF (modifications not checked) [[Ala5;Phe6;Glu10]GpTx-1(1-34)] showed an IWQ Use Nav1.3 (µM) (IC50, IonWorks Quattro population patch clamp) of 0.32 µM.
Turning to DCEGFMRKCIPDNDKCCRPNLVCSRTHKWCKYVF (modifications not checked) [[Glu3]GpTx-1(1-34)], the IWQ Use Nav1.3 was 0.83 µM.
DCLGAFRKCIPENDKCCRPNLVCSRTHKWCKYVF (modifications not checked) [[Ala5;Phe6;Glu12]GpTx-1(1-34)] yielded an IWQ Use Nav1.3 (µM); IC50 of peak inward current, IonWorks Quattro of 0.2 µM.
The molecule DCQGFMRKCIPDNDKCCRPNLVCSRTHKWCKYVF (modifications not checked) [[Gln3]GpTx-1(1-34)] gave an IWQ Use Nav1.3 of 0.24 µM.
Regarding DCLGAFRKCDPDNDKCCRPNLVCSRTHKWCKYVF (modifications not checked) [[Ala5;Phe6;Asp10]GpTx-1(1-34)], the IWQ Use Nav1.3 (µM); IC50 of peak inward current, IonWorks Quattro came out at 0.37 µM.
On to DCLGFMRKCIPDNDKCCRPNLVCSRTHDWCKYVF (modifications not checked) [[Asp28]GpTx-1(1-34)], for which the IC50, IWQ Use Nav1.3 is 770 nM.
In turn, DCLGAMRKCIPDNDKCCRPNLVCSRTHLWCKYVF (modifications not checked) [[Ala5;Leu28]GpTx-1(1-34)] registered an IWQ Use Nav1.3 IC50 (IonWorks Quattro electrophysiology) of 2.7 µM.
For DCLGLFRKCIPDNDKCCRPNLVCSRTHKWCKYVF (modifications not checked) [[Leu5;Phe6]GpTx-1(1-34)], the IWQ Use Nav1.3 was 0.22 µM.
In the case of DCLGAFRKCIPDNDKCCRPNLVCSRTHKWCKYVF (modifications not checked) [[Ala5;Phe6]GpTx-1(1-34)], the IWQ Use Nav1.3 (µM); IC50 of peak inward current, IonWorks Quattro came to 0.05 µM and the Nav1.3 Use IC50 (PatchXpress electrophysiology) stood at 0.022 µM.
DCLGALRKCIPDNDKCCRPNLVCSATHKWCKYVF (modifications not checked) [[Ala5,25;Leu6]GpTx-1(1-34)] came in with an IWQ Use Nav1.3 (µM) (IC50, IonWorks Quattro population patch clamp) of 2.8 µM.
Molecule DCLGSFRKCIPDNDKCCRPNLVCSRTHKWCKYVF (modifications not checked) [[Ser5;Phe6]GpTx-1(1-34)] displayed an IWQ Use Nav1.3 (µM), IC50 of peak inward current of 1.7 µM.
DCLGAMRKCIPDNDKCCRPNLVCSRTHNWCKYVF (modifications not checked) [[Ala5;Asn28]GpTx-1(1-34)] came in with an IWQ Use Nav1.3 IC50 (IonWorks Quattro electrophysiology) of 3.2 µM.

A further assay has as its target human voltage-gated sodium channel Nav1.5 (human), Q14524. Briefly: cell-based or functional assay.
In the case of DCLGFMRKCIPDNDKCCRPNLVCSRTHKWCKKVFW (modifications not checked) [[Lys32]GpTx-1(1-34)-Trp], the IWQ Use Nav1.5 (µM); IC50 of peak inward current, IonWorks Quattro was determined as 18.9 µM.
Consider TCLGFMRKCIPDNDKCCRPNLVCSRTHKWCKYVF (modifications not checked) [[Thr1]GpTx-1(1-34)], for which the IWQ Use Nav1.5 stood at 9.21 µM.
DCLGAFRKCEPDNDKCCRPNLVCSRTHKWCKYVF (modifications not checked) [[Ala5;Phe6;Glu10]GpTx-1(1-34)] returned an IWQ Use Nav1.5 (µM) (IC50, IonWorks Quattro population patch clamp) of 36 µM and a Nav1.5 Use IC50 (µM), PatchXpress electrophysiology of more than 10 µM.
Take DCEGFMRKCIPDNDKCCRPNLVCSRTHKWCKYVF (modifications not checked) [[Glu3]GpTx-1(1-34)]: the IWQ Use Nav1.5 came to 10.5 µM and the Nav1.5 Use IC50 (PatchXpress electrophysiology) is more than 10 µM.
DCLGAFRKCIPENDKCCRPNLVCSRTHKWCKYVF (modifications not checked) [[Ala5;Phe6;Glu12]GpTx-1(1-34)] displayed an IWQ Use Nav1.5 (µM); IC50 of peak inward current, IonWorks Quattro of 45 µM and a Nav1.5 Use IC50 (PatchXpress electrophysiology) of more than 10 µM.
Regarding DCQGFMRKCIPDNDKCCRPNLVCSRTHKWCKYVF (modifications not checked) [[Gln3]GpTx-1(1-34)], the IWQ Use Nav1.5 was 16.4 µM.
For the molecule DCLGAFRKCDPDNDKCCRPNLVCSRTHKWCKYVF (modifications not checked) [[Ala5;Phe6;Asp10]GpTx-1(1-34)], the IWQ Use Nav1.5 (µM); IC50 of peak inward current, IonWorks Quattro came to 43 µM and the Nav1.5 Use IC50 (µM), PatchXpress electrophysiology was more than 10 µM.
As to DCLGFMRKCIPDNDKCCRPNLVCSRTHDWCKYVF (modifications not checked) [[Asp28]GpTx-1(1-34)], the IC50, IWQ Use Nav1.5 is 37900 nM and the Nav1.5 Use IC50 (PatchXpress electrophysiology) was more than 10 µM.
DCLGAMRKCIPDNDKCCRPNLVCSRTHLWCKYVF (modifications not checked) [[Ala5;Leu28]GpTx-1(1-34)] registered an IWQ Use Nav1.5 IC50 (IonWorks Quattro electrophysiology) of 49.3 µM.
In turn, DCLGLFRKCIPDNDKCCRPNLVCSRTHKWCKYVF (modifications not checked) [[Leu5;Phe6]GpTx-1(1-34)] showed an IWQ Use Nav1.5 of 20.1 µM.
DCLGAFRKCIPDNDKCCRPNLVCSRTHKWCKYVF (modifications not checked) [[Ala5;Phe6]GpTx-1(1-34)] gave an IWQ Use Nav1.5 (µM); IC50 of peak inward current, IonWorks Quattro of 5 µM and a Nav1.5 Use IC50 (PatchXpress electrophysiology) of more than 10 µM.
DCLGALRKCIPDNDKCCRPNLVCSATHKWCKYVF (modifications not checked) [[Ala5,25;Leu6]GpTx-1(1-34)]: the IWQ Use Nav1.5 (µM) (IC50, IonWorks Quattro population patch clamp) was found to be 38 µM.
Molecule DCLGSFRKCIPDNDKCCRPNLVCSRTHKWCKYVF (modifications not checked) [[Ser5;Phe6]GpTx-1(1-34)] showed an IWQ Use Nav1.5 (µM), IC50 of peak inward current of 11.9 µM and a Nav1.5 Use IC50 (PatchXpress electrophysiology) of more than 10 µM.
Take DCLGAMRKCIPDNDKCCRPNLVCSRTHNWCKYVF (modifications not checked) [[Ala5;Asn28]GpTx-1(1-34)]: the IWQ Use Nav1.5 IC50 (IonWorks Quattro electrophysiology) was more than 50 µM.

In a further assay the target is human voltage-gated sodium channel Nav1.7 (human), Q15858. The experiment in a line: cell-based or functional assay.
As for DCLGFMRKCIPDNDKCCRPNLVCSRTHKWCKKVFW (modifications not checked) [[Lys32]GpTx-1(1-34)-Trp], the IWQ Use Nav1.7 (µM); IC50 of peak inward current, IonWorks Quattro is 0.73 µM.
TCLGFMRKCIPDNDKCCRPNLVCSRTHKWCKYVF (modifications not checked) [[Thr1]GpTx-1(1-34)]: the IWQ Use Nav1.7 is 0.11 µM.
Regarding DCLGAFRKCEPDNDKCCRPNLVCSRTHKWCKYVF (modifications not checked) [[Ala5;Phe6;Glu10]GpTx-1(1-34)], the IWQ Use Nav1.7 (µM) (IC50, IonWorks Quattro population patch clamp) came out at 0.38 µM and the Nav1.7 Use IC50 (µM), PatchXpress electrophysiology amounted to 0.079 µM.
Take DCEGFMRKCIPDNDKCCRPNLVCSRTHKWCKYVF (modifications not checked) [[Glu3]GpTx-1(1-34)]: the IWQ Use Nav1.7 worked out at 0.67 µM and the Nav1.7 Use IC50 (PatchXpress electrophysiology) was 0.041 µM.
For the molecule DCLGAFRKCIPENDKCCRPNLVCSRTHKWCKYVF (modifications not checked) [[Ala5;Phe6;Glu12]GpTx-1(1-34)], the IWQ Use Nav1.7 (µM); IC50 of peak inward current, IonWorks Quattro is 0.61 µM and the Nav1.7 Use IC50 (PatchXpress electrophysiology) came to 0.028 µM.
For the molecule DCQGFMRKCIPDNDKCCRPNLVCSRTHKWCKYVF (modifications not checked) [[Gln3]GpTx-1(1-34)], the IWQ Use Nav1.7 worked out at 0.25 µM.
DCLGAFRKCDPDNDKCCRPNLVCSRTHKWCKYVF (modifications not checked) [[Ala5;Phe6;Asp10]GpTx-1(1-34)]: the IWQ Use Nav1.7 (µM); IC50 of peak inward current, IonWorks Quattro came out at 0.72 µM and the Nav1.7 Use IC50 (µM), PatchXpress electrophysiology worked out at 0.04 µM.
Take DCLGFMRKCIPDNDKCCRPNLVCSRTHDWCKYVF (modifications not checked) [[Asp28]GpTx-1(1-34)]: the IC50, IWQ Use Nav1.7 was determined as 730 nM and the Nav1.7 Use IC50 (PatchXpress electrophysiology) came out at 0.015 µM.
In turn, DCLGAMRKCIPDNDKCCRPNLVCSRTHLWCKYVF (modifications not checked) [[Ala5;Leu28]GpTx-1(1-34)] displayed an IWQ Use Nav1.7 IC50 (IonWorks Quattro electrophysiology) of 1.1 µM.
Molecule DCLGLFRKCIPDNDKCCRPNLVCSRTHKWCKYVF (modifications not checked) [[Leu5;Phe6]GpTx-1(1-34)] registered an IWQ Use Nav1.7 of 0.057 µM.
The molecule DCLGAFRKCIPDNDKCCRPNLVCSRTHKWCKYVF (modifications not checked) [[Ala5;Phe6]GpTx-1(1-34)] registered an IWQ Use Nav1.7 (µM); IC50 of peak inward current, IonWorks Quattro of 0.07 µM and a Nav1.7 Use IC50 (PatchXpress electrophysiology) of 0.012 µM.
Consider DCLGALRKCIPDNDKCCRPNLVCSATHKWCKYVF (modifications not checked) [[Ala5,25;Leu6]GpTx-1(1-34)], for which the IWQ Use Nav1.7 (µM) (IC50, IonWorks Quattro population patch clamp) was 0.6 µM.
Take DCLGSFRKCIPDNDKCCRPNLVCSRTHKWCKYVF (modifications not checked) [[Ser5;Phe6]GpTx-1(1-34)]: the IWQ Use Nav1.7 (µM), IC50 of peak inward current turned out to be 0.76 µM and the Nav1.7 Use IC50 (PatchXpress electrophysiology) was 0.024 µM.
The molecule DCLGAMRKCIPDNDKCCRPNLVCSRTHNWCKYVF (modifications not checked) [[Ala5;Asn28]GpTx-1(1-34)] returned an IWQ Use Nav1.7 IC50 (IonWorks Quattro electrophysiology) of 1.7 µM.
